# Tested on: A/Regensburg/D6/09, H1N1pdm09, RB1
# Settings: per os, 4 treatments every eight hours, PD-03250901 25 mg/kg
compound,measurement,value
O=C(NOC[C@H](O)CO)c1ccc(F)c(F)c1Nc1ccc(I)cc1F [PD-03250901],virus titer in the lung,potent in reducing virus titer

# — US20190298669A1 (priority 2018, published 2019)
